The subject of the data set is SARS-CoV-2. The data set can be described thus: Neutral Red reduction of virus-induced cytopathic effect (primary CPE assay) in Vero 76 cells. It counts as cell-based. Also on record: unit not given beside the values. Conditions: CC50 divided by EC50. Background: Damage to the host cells serves as the signal in cytopathic effect assays.
Regarding `COc1cc2c(OCCCCN3CCOCC3)c3c(c(-c4ccc5c(c4)OCO5)c2cc1OC)C(=O)OC3` [Compound of Formula L, 4-(4-morpholinobutoxy)-9-(benzo[d][1,3]dioxol-5-yl)-6,7-dimethoxynaphtho[2,3-c]furan-1(3H)-one], the SI50 amounted to 0.
On to `COC1COC(Oc2ccc(-c3ccc4c(c3)OCO4)c3ccccc23)C(O)C1OC` (centres unmarked) [Compound of Formula E, 2-(1-(benzo[d][1,3]dioxol-5-yl)naphthalen-4-yloxy)-tetrahydro-4,5-dimethoxy-2H-pyran-3-ol], for which the SI50 stood at 7.1.
`CCOC(=O)c1c(C(=O)OCC)c(-c2ccc3c(c2)OCO3)c2cc(OC)c(OC)cc2c1OC1OCC(OC)C(OC)C1O` (centres unmarked) [Compound of Formula D, diethyl 1-(benzo[d][1,3]dioxol-5-yl)-6,7-dimethoxy-4-(tetrahydro-3-hydroxy-4,5-dimethoxy-2H-pyran-2-yloxy)naphthalene-2,3-dicarboxylate] registered an SI50 of 1.3.
As for `COc1cc2c(OC3OCC(OC)C(OC)C3O)c3c(c(-c4ccc5c(c4)OCO5)c2cc1OC)C(=O)OC3` (centres unmarked) [Compound of Formula A, 9-(benzo[d][1,3]dioxol-5-yl)-6,7-dimethoxy-4-(tetrahydro-3-hydroxy-4,5-dimethoxy-2H-pyran-2-yloxy)naphtho[2,3-c]furan-1(3H)-one], the figure is 0; as for `O[C@H]1[C@H](O)COC(Oc2ccc(-c3ccc4c(c3)OCO4)c3ccccc23)[C@@H]1O` (stereo partly drawn) [Compound of Formula F, (3R,4S,5R)-2-(1-(benzo[d][1,3]dioxol-5-yl)naphthalen-4-yloxy)-tetrahydro-2H-pyran-3,4,5-triol], 11.

These data come from patent US20230172958A1, “USE OF COMPOUNDS FOR TREATING VIRAL INFECTIONS” (priority 2020, published 2023).
